Anti-infective test results gathered from many reports (values: NIAID ChemDB through PubChem).

Shared fields: tests in culture; organism: Candida albicans; measure: MFC

An empty or dashed field is not shown. Lines come from different laboratories, so protocols vary.

smiles,strain or isolate,read by,result
C/C(=C\c1c(C)[nH]c2ccccc12)[N+](=O)[O-],-,-,50 µg/mL
C[C@@H]1[C@H](O)[C@@H](C)/C=C/C=C/C=C/C=C/C=C/C=C/C=C/[C@H](O[C@@H]2O[C@H](C)[C@@H](O)[C@H](N)[C@@H]2O)C[C@@H]2O[C@](O)(C[C@@H](O)C[C@@H](O)[C@H](O)CC[C@@H](O)C[C@@H](O)CC(=O)O[C@H]1C)C[C@H](O)[C@H]2C(=O)O,ATCC 10231,broth dilution,9.8 µg/mL
C=C1CC[C@@]2(OC1)O[C@H]1C[C@H]3[C@@H]4CC=C5C[C@@H](O)[C@H](O)[C@@H](O[C@@H]6O[C@H](CO)[C@H](O)[C@H](O)[C@H]6O)[C@]5(C)[C@H]4CC[C@]3(C)[C@H]1[C@@H]2C,-,-,≥20 µg/mL
FC(F)(F)c1cccc([Se][Se]c2cccc(C(F)(F)F)c2)c1,-,broth dilution,>64 µg/mL
COc1ccc(CSC#N)cc1,-,broth dilution,5000 µg/mL
CCCCCCCCCCCCCCCC(=O)N[C@H]1C[C@@H](O)[C@@H](O)NC(=O)[C@@H]2[C@@H](O)[C@@H](C)CN2C(=O)[C@H]([C@@H](C)O)NC(=O)[C@H]([C@H](O)[C@@H](O)c2ccc(O)cc2)NC(=O)[C@@H]2C[C@@H](O)CN2C(=O)[C@H]([C@@H](C)O)NC1=O,-,-,0.5 µg/mL
CC12C(=O)c3cccc(O)c3C(=O)C1CC1=C2C(=O)c2c(O)cccc2C1=O,-,-,3 µg/mL
O=C1C(c2ccccn2)=[N+]([O-])c2ccccc21,-,-,15.63 µg/mL
CC(C)(CS(=O)(=O)[O-])N(Cl)Cl,ATCC 10231,-,32 µg/mL
O=C1C(c2ccc(Cl)cc2)=[N+]([O-])c2cc[n+]([O-])cc21,-,-,15.63 µg/mL
O=c1c(O)c(-c2ccc(O)c(O)c2)oc2cc(O)cc(O)c12,ATCC 10231,broth dilution,250 µg/mL
CCC(C)CCCCCCCCCCC(=O)N[C@H]1C[C@@H](O)[C@@H](O)NC(=O)C2[C@@H](O)[C@@H](C)CN2C(=O)C(CO)NC(=O)C([C@H](O)C(O)c2ccc(O)cc2)NC(=O)NC(=O)[C@@H]2C[C@@H](O)CN2C(=O)[C@H]([C@@H](C)O)NC1=O,-,-,4 µg/mL
C/C(=C\c1c[nH]c2ccccc12)[N+](=O)[O-],-,-,50 µg/mL
COc1ccc2c(c1)C(=O)C(c1cccnc1)=[N+]2[O-],-,-,15.63 µg/mL
CCC(C)CC(C)CCCCCCCCC(=O)NC1CC(O)CNC(=O)C2C(O)CCN2C(=O)C(C(O)CC(N)=O)NC(=O)C(C(O)Cc2ccc(OP(=O)([O-])[O-])cc2)NC(=O)C2CC(O)CN2C(=O)C(C(C)O)NC1=O.[Na+].[Na+],MY1028,-,2 µg/mL
O=c1oc2ccccc2c(O)c1C(c1c(O)c2ccccc2oc1=O)c1c[nH]c2ccccc12,-,agar diffusion / agar,100 µg/mL
Clc1ccc(COC(Cn2ccnc2)c2ccc(Cl)cc2Cl)c(Cl)c1,-,-,32 µg/mL
C[C@@H]1CC[C@@]2(OC1)O[C@H]1C[C@H]3[C@@H]4CC=C5C[C@@H](O[C@@H]6O[C@H](CO)[C@H](O[C@@H]7O[C@@H](C)[C@H](O)[C@@H](O)[C@H]7O)[C@@H](O)[C@H]6O[C@@H]6O[C@@H](C)[C@H](O)[C@@H](O)[C@H]6O)CC[C@]5(C)[C@H]4CC[C@]3(C)[C@H]1[C@@H]2C,-,-,2.5 µg/mL
CCC(C)CC(C)CCCCCCCCC(=O)NC1C[C@@H](O)[C@@H](O)NC(=O)[C@@H]2[C@@H](O)CCN2C(=O)[C@H]([C@@H](O)CC(N)=O)NC(=O)[C@H]([C@H](O)[C@@H](O)c2ccc(OP(=O)([O-])O)cc2)NC(=O)[C@@H]2C[C@@H](O)CN2C(=O)[C@H]([C@H](C)O)NC1=O.[Na+],MY1055,-,2 µg/mL
c1ccc(-c2ccc(C(c3ccccc3)n3ccnc3)cc2)cc1,-,-,>125 µg/mL
c1ccc([Se][Se]c2ccccc2)cc1,ATCC 44773,broth dilution,64 µg/mL
C[C@@H]1CC[C@@]2(OC1)O[C@H]1C[C@H]3[C@@H]4CC=C5C[C@@H](O)[C@H](O)[C@@H](O[C@@H]6OC[C@@H](O)[C@H](O)[C@H]6O)[C@]5(C)[C@H]4CC[C@]3(C)[C@@]1(O)[C@@H]2C,-,-,≥20 µg/mL
CC1=CC(=O)c2c(O)cccc2C1=O,-,-,>1000 µg/mL
N#CSCc1ccccc1,-,broth dilution,1250 µg/mL
COc1cc(O)c(C(C)=O)c(OC)c1,FCF-243,-,>500 µg/mL
COc1cccc(CSC#N)c1,-,broth dilution,600 µg/mL
COC(=O)C1=CC[C@@]23CC[C@@H]([C@@](C)(/C=C/C=C(\C)C(=O)O)OC2=O)[C@@]3(O)CC1,Isolate B311,-,6.25 µg/mL
CCOP(=O)(O)CC(C)(C)N(Cl)Cl,ATCC 10231,-,32 µg/mL
O=C1C(c2ccc(Cl)cc2)=[N+]([O-])c2ccccc21,-,-,>12.5 µg/mL
CC(=O)N[C@H]1[C@@H](O[C@@H]2O[C@H](C[C@@H](O)[C@H]3O[C@@H](n4ccc(=O)[nH]c4=O)[C@H](O)[C@@H]3O)[C@H](O)[C@H](O)[C@H]2NC(=O)/C=C/CC(C)C)O[C@H](CO)[C@@H](O)[C@@H]1O,-,-,8 µg/mL
C=C(CCC1(O)O[C@H]2C[C@H]3[C@@H]4CC=C5C[C@@H](O)[C@H](O)[C@@H](O[C@@H]6O[C@H](CO)[C@H](O)[C@H](O)[C@H]6O)[C@]5(C)[C@H]4CC[C@]3(C)[C@H]2[C@@H]1C)CO[C@@H]1O[C@H](CO)[C@@H](O)[C@H](O)[C@H]1O,-,-,10 µg/mL
C=C(Cl)/C=C/[C@H](O)CC(=C)C[C@H]1OC2[C@@H](O)[C@]3(O)C[C@@H](O)[C@H](C)[C@H](CCC/C=C\[C@@H]4C[C@@H](O)C[C@]5(C[C@H](OC)CC(CC(=O)[C@@H](C)[C@H](OC(C)=O)[C@@H](C)C(=C)C[C@@H]6C[C@@](C)(O)C[C@]7(C[C@H](OC(C)=O)CC(CC(=O)O[C@@H]([C@@H]1O)[C@H]2C)O7)O6)O5)O4)O3,ATCC 14053,-,25 µg/mL
CN(C/C=C/C#CC(C)(C)C)Cc1cccc2ccccc12,-,-,128 µg/mL
Cc1ccc2occ(C(c3c(O)c4ccccc4oc3=O)c3c(O)c4ccccc4oc3=O)c(=O)c2c1,-,agar diffusion / agar,50 µg/mL